Measured values taken from IntAct's records for PubMed 21217774.

Molecular target: esr1_human ESR1 (UniProt P03372)

Ras-related C3 botulinum toxin substrate 3 (Homo sapiens) (from UniProt P60763) S151A
effect of a mutation on the interaction: decreasing interaction
